Measured values published in article PMC4416878, “Golgi Anti-apoptotic Proteins Are Highly Conserved Ion Channels That Affect Apoptosis and Cell Migration*” (2015).

Key:
[1] = molecular target: camelpox virus GAAP mutant D219N, purified (camelpox virus (CMLV)); experiment: SEC
[2] = molecular target: camelpox virus GAAP mutant E207Q, purified (camelpox virus (CMLV)); experiment: SEC

Substance | percent of protein oligomeric [1] | percent of protein oligomeric [2]
camelpox virus GAAP mutant D219N, purified (natural protein) | 66% | –
camelpox virus GAAP mutant E207Q, purified (natural protein) | – | 89%
